Anti-infective test results gathered from many reports (values: NIAID ChemDB through PubChem).

Common to all: growth or infection tests; organism: Poliovirus; measure: EC50

Lines come from different laboratories, so protocols vary. ECn: concentration that inhibits the pathogen or its effect by n%. a–b is a range or a potency band. Blank or dashed fields: not listed here.

| structure | strain or isolate | cells | result |
|---|---|---|---|
| CSc1nsc(-c2ccccc2)c1C#N | TYPE 1 | HEP-2 | 0.045 µM |
| COc1ccc(OC)c(/C=N/N=C(/N)NO)c1.Cc1ccc(S(=O)(=O)O)cc1 | Brunhilde (type 1) | VERO | >50 µM |
| [N-]=[N+]=N[C@H]1[C@@H](F)[C@H](N2C=CC(N)NC2=O)O[C@@H]1CO | TYPE 1 | HeLa | >400 µg/mL |
| C/C(=N\O)c1ccc2c(c1)Sc1ccccc1S2 | TYPE 3 | BSC-1 | 2–10 µg/mL |
| NC(=O)c1cncc([C@H]2O[C@H](CO)[C@H](O)[C@@H]2O)c1 |  | HeLa | ≥100 µg/mL |
| O=c1ccn([C@@H]2O[C@H](CO)[C@](O)(C(F)(F)F)[C@H]2O)c(=O)[nH]1 | TYPE 1 | HeLa | >400 µg/mL |
| COc1ccc(/C=N/N=C(\N)NO)cc1.Cc1ccc(S(=O)(=O)O)cc1 | Brunhilde (type 1) | VERO | >50 µM |
| Nc1ccn(CCCC(O)CF)c(=O)n1 | TYPE 1 | HeLa | >400 µg/mL |
| CCC1COC(c2ccc(OCCCCCCC(=O)c3ccc(C)s3)cc2)=N1 | TYPE 1 | VERO | >25.06 µM |
| N#Cc1cncc([C@H]2O[C@H](CO)[C@@H](O)[C@@H]2O)c1 |  | HeLa | ≥100 µg/mL |
| Nc1ccn(C(CF)CCCO)c(=O)n1 | TYPE 1 | HeLa | >400 µg/mL |
| COc1ccc(/C=N/N=C(/N)NO)c(OC)c1OC.Cc1ccc(S(=O)(=O)O)cc1 | Brunhilde (type 1) | VERO | >50 µM |
| NC(=O)c1cncc([C@@H]2O[C@H](CO)[C@@H](O)[C@@H]2O)c1 |  | HeLa | ≥100 µg/mL |
| COC(C)c1ccc2c(c1)Sc1ccccc1O2 | TYPE 3 | BSC-1 | >10 µg/mL |
| C[C@@]1(O)[C@@H](CO)O[C@@H](n2cnc3c(N)ncnc32)[C@@H]1O | TYPE 1 | HeLa | >40 µg/mL |
| Cc1cn(CCCC(O)CF)c(=O)[nH]c1=O | TYPE 1 | HeLa | >400 µg/mL |
| OC[C@H]1O[C@@H](c2cncc(Br)c2)[C@@H](O)[C@H]1O |  | HeLa | ≥100 µg/mL |
| CC(C)(O)c1ccc2c(c1)Sc1ccccc1O2 | TYPE 3 | BSC-1 | 2–10 µg/mL |
| NC(=O)c1cncc([C@H]2O[C@H](CO)[C@@H](O)[C@@H]2O)c1 |  | HeLa | ≥100 µg/mL |
| CSc1nsc(-c2ccc(OS(=O)(=O)c3ccc(C)cc3)cc2)c1C#N | TYPE 1 | HEP-2 | >25 µM |
| CCOC(=O)c1ccc(OCCCCC(=O)c2ccc(C)s2)cc1 | TYPE 2 | VERO | 6.41 µM |
| Cc1cn([C@H]2O[C@H](CO)[C@@H](N=[N+]=[N-])[C@H]2F)c(=O)nc1N | TYPE 1 | HeLa | >400 µg/mL |
| Cc1ccc(C(=O)CCCCOc2ccc(C3=N[C@H](C)CO3)cc2)s1 | TYPE 2 | VERO | 0.19 µM |
| Clc1ccc(C2=Cc3cc(Cl)ccc3OC2)cc1 | IA (TYPE 2) | HEP-2 | <10 µM |
| Cc1ccc(C(=O)CCCCOc2ccc(C3=NCC(C)O3)cc2)s1 | TYPE 1 | VERO | >28.01 µM |
| C1=C(c2ccccc2)COc2ccccc21 | TYPE 2 | HEP-2 | <10 µM |
| Cc1ccc(C(=O)CCCCCCOc2ccc(C3=N[C@@H](C)CO3)cc2)s1 | TYPE 2 | VERO | >25.97 µM |
| NC(=O)c1cncc([C@@H]2O[C@H](CO)[C@H](O)[C@@H]2O)c1 |  | HeLa | ≥100 µg/mL |
| Brc1ccc(C2=Cc3cc(Br)ccc3OC2)cc1 | IB (TYPE 2) | HEP-2 | >10 µM |
| CC(O)c1cccc(Cc2ccccc2)c1 | TYPE 3 | BSC-1 | 0.4–2 µg/mL |
| c1ccc(C2COc3ccccc3C2)cc1 | SABIN (TYPE 2) | HEP-2 | >10 µM |
| OC[C@H]1O[C@H](c2cncc(Br)c2)[C@@H](O)[C@H]1O |  | HeLa | ≥100 µg/mL |
| CCC(O)c1ccc2c(c1)Sc1ccccc1O2 | TYPE 3 | BSC-1 | 2–10 µg/mL |
| Nc1ncnc2c1ncn2[C@@H]1OCC(CO)=C1F |  |  | >100 µg/mL |
| Cc1ccc(C(=O)CCCCOc2ccc(C3=NC(C)(C)CO3)cc2)s1 | TYPE 2 | VERO | 18.3 µM |
| CSc1nsc(-c2ccc(OC(C)(C)C)cc2)c1C#N | TYPE 1 | HEP-2 | 0.3 µM |
| Clc1ccc(C2CCc3ccccc3O2)c(Cl)c1 | TYPE 2 | HEP-2 | >10 µM |
| Cc1ccc(C(=O)CCCCOc2ccc(C3=NCCO3)cc2)s1 | TYPE 1 | VERO | >29.01 µM |

The first 3 rows once more:

structure,strain or isolate,cells,result
CSc1nsc(-c2ccccc2)c1C#N,TYPE 1,HEP-2,0.045 µM
COc1ccc(OC)c(/C=N/N=C(/N)NO)c1.Cc1ccc(S(=O)(=O)O)cc1,Brunhilde (type 1),VERO,>50 µM
[N-]=[N+]=N[C@H]1[C@@H](F)[C@H](N2C=CC(N)NC2=O)O[C@@H]1CO,TYPE 1,HeLa,>400 µg/mL